A mixed list of measured activities; the numbers were collected in NIAID ChemDB.

Common to all: host cell toxicity; cell line: Huh7.5; measure: CC50

An empty or dashed field is not shown. Conditions beyond the fields shown may differ between rows. CCn: concentration that lowers growth or viability of the cells by n%.

smiles | read by | result
COC(=O)C1=C(C(=O)OC)C2N(CCCCCNC(=O)CCCCCNC(=O)CCCC3SCC4NC(=O)NC43)c3ccccc3[C@@]23CC(=O)N(Cc2ccccc2)C3=N1 | XTT | >40 µM
COc1c(O)cc2oc3cc(O)c(CC=C(C)C)c(O)c3c(=O)c2c1CC=C(C)C | MTT | 9.9 µM
O=C(Cn1sc2ccccc2c1=O)Nc1ccccc1I | ATP | 26 µM
CCOC(=O)c1c(CS(=O)(=O)c2ccccc2)n(C)c2ccc(CN3CCN(C)CC3)cc12 | resazurin | >50 µM
N#Cc1c(SCc2ccncc2)sc2c(=O)[nH]c(=O)[nH]c12 | MTS | >224 µM
CCOC(=O)c1c(CS(=O)(=O)c2ccccc2)n(C)c2ccc(CN3CCOCC3)cc12 | resazurin | >50 µM
O=C(O)CCn1ncc2c(=O)[nH]cnc21 | MTS | 180 µM
CC(C)=CCC/C=C/CC/C(C)=C/C=C/C(C)=C/C(=O)O | WST | 68 µM
Cc1ccc(CNc2ccc3nc[nH]c3c2)o1 | MTT | >200 µM
CN(C)CCCn1cnc2c(=O)oc3ccccc3c21 | MTS | >224 µM
C/C(=C\c1cn(S(=O)(=O)Cc2ccccc2)c2ccc(C#N)cc12)C(=O)Nc1ccc(C(C)(C)C)cc1 | MTT | 17 µM
O=[N+]([O-])c1ccc(CNc2ccc3ncoc3c2)cc1 | MTT | >200 µM
C[C@@H]1O[C@@H](O[C@H]2[C@H](O)[C@@H](O)[C@H](O[C@H]3CC[C@]4(C)[C@H]5C=C[C@]67OC[C@@]8(CCC(C)(C)C[C@H]86)[C@@H](O)C[C@@]7(C)[C@]5(C)CC[C@H]4C3(C)C)O[C@@H]2CO[C@@H]2O[C@H](CO)[C@@H](O)[C@H](O)[C@H]2O)[C@H](O)[C@H](O)[C@H]1O | XTT | 717 µM
Nc1nc2c(cnn2[C@H](C=O)O[C@@H](C=O)CO)c(=O)[nH]1 | MTS | >224 µM
C/C(=C\c1cn(Cc2ccccc2)c2ccc(C#N)cc12)C(=O)Nc1ccc(C(C)(C)C)cc1 | MTT | >100 µM
OC[C@@H]1[C@@H](O)[C@H](O)[C@@H](O)CN1CCCCCC1(O)CCCCC1 | MTT | >500 µM
CC(=O)n1cc(/C=C(\C)C(=O)Nc2ccc(C(C)(C)C)cc2)c2cc(C#N)ccc21 | MTT | 40.74 µM
C=CC1=C(C)C2=NC1=CC1=NC(=CC3=C(C)C4=C(O)CC(=C5NC(=C2)[C@@H](C)[C@@H]5CCC(=O)O)C4=N3)C(CC)=C1C | WST | 7.2 µg/mL
Clc1ccc(Cn2c(CN3CCCC3)nc3ccccc32)cc1 | MTT | 34.6 µM
Cc1ccc(C)c(OCCCCCCN2C[C@H](O)[C@@H](O)[C@H](O)[C@H]2CO)c1 | MTT | 208 µM
CN(C)CC1CNc2nc3ccc4c(c3n2C1)CC(CN(C)C)O4 |  | 65 µM
C/C(=C\c1cn(CCN(C)C)c2ccccc12)C(=O)Nc1ccc(C(C)(C)C)cc1 | MTT | 6.9 µM
CC1=C(/C=C/C(C)=C/C=C/C(C)=C/C(=O)O)C(C)(C)CCC1 | WST | >100 µM
C=CCN1c2ccccc2[C@]23CC(=O)N(Cc4ccccc4)C2=NC(C(=O)OC)=C(C(=O)OC)C13 | XTT | >100 µM
COc1ccc2c(c1)c(/C=C(\C)C(=O)Nc1ccc(C(C)(C)C)cc1)cn2Cc1ccccc1 | MTT | >100 µM

3 of the rows above, restated:

{"smiles": "COc1c(O)cc2oc3cc(O)c(CC=C(C)C)c(O)c3c(=O)c2c1CC=C(C)C", "read by": "MTT", "result": "9.9 µM"}
{"smiles": "CC(=O)n1cc(/C=C(\\C)C(=O)Nc2ccc(C(C)(C)C)cc2)c2cc(C#N)ccc21", "read by": "MTT", "result": "40.74 µM"}
{"smiles": "C/C(=C\\c1cn(Cc2ccccc2)c2ccc(C#N)cc12)C(=O)Nc1ccc(C(C)(C)C)cc1", "read by": "MTT", "result": ">100 µM"}